Measured values from several laboratories, pooled; numbers as filed in NIAID ChemDB.

All rows: tests in culture; species: HIV-1; read by: p24; read-out: EC50

Neighbouring rows are from separate reports. ECn: concentration that inhibits the pathogen or its effect by n%. Blank or dashed fields: not listed here.

smiles	changes	cells	strain	value
C[C@@H](NC(=S)Nc1ccc(Br)cn1)c1cccc2ccccc12	RT-Y181C	PBMC	A17	0.105 µM
O=C1N(Cc2ccc(CO)cc2)[C@H](Cc2ccccc2)[C@H](O)[C@@H](O)[C@@H](Cc2ccccc2)N1Cc1ccc(CO)cc1		PBMC	B clinical isolate	0.04 µM
CCCCCCCCCCCCCCCCCCCCCCOCC(C)(COCCCCCCCCCCCCCCCCCCCCCC)CO[C@]1(C(=O)O)C[C@H](OS(=O)(=O)O)[C@@H](NC(C)=O)[C@H]([C@H](OS(=O)(=O)O)[C@@H](COS(=O)(=O)O)OS(=O)(=O)O)O1		PBMC	9446 Clinical isolate	10 µM
COc1ccc(CN[C@@H](C(=O)N[C@H](C(=O)NCc2nc3ccccc3[nH]2)C(C)C)[C@H](O)[C@H](Cc2ccccc2)NC(=O)[C@@H](NC(=O)OCc2ccccc2)C(C)(C)C)cc1		MT-4	RF	0.023 µM
Nc1nc(NC2CC2)c2ncn([C@H]3C=C[C@@H](CO)C3)c2n1		Macrophage + Monocytes/macrophages	SF162	>0.5 µM
C=CCOC(=O)OCOP(=O)(COCCn1cnc2c(N)ncnc21)OCOC(=O)OCC=C		MT-4		>30 µM
COc1ccc2c(c1)N(C(=O)OC(C)C)[C@@H](CSC)C(=S)N2	RT-L74V G190E	H9	A2(RT-L74V G190E)	>10 µg/mL
Cc1c(N)nc([C@H](CC(N)=O)NC[C@H](N)C(N)=O)nc1C(=O)N[C@H](C(=O)N[C@H](C)[C@@H](O)[C@H](C)C(=O)N[C@H](C(=O)NCCc1nc(-c2nc(C(=O)NCCC[S+](C)C)cs2)cs1)[C@@H](C)O)C(O[C@@H]1O[C@@H](CO)[C@@H](O)[C@H](O)[C@@H]1O[C@H]1O[C@H](CO)[C@@H](O)[C@H](OC(N)=O)[C@@H]1O)c1cnc[nH]1		PBL	BaL	300 µM
Nc1ncnc2c1ncn2CCOCP(=O)(OCOC(=O)OC1CCCCC1)OCOC(=O)OC1CCCCC1.O=C(O)/C=C/C(=O)O		MT-4	IIIB	23.1 µM
CC1(C)C2=CC(=O)C(O)(c3ccccc3)C(=O)N2c2ccc(Cl)cc21		PBMC/1(CCS) + PBMC	CCS	0.07 µM
Cc1cn([C@H]2C[C@H](N=[N+]=[N-])[C@@H](CO)O2)c(=O)[nH]c1=O		PBMC	9632 CLADE B CLADE B	0.021 µM
Cn1cc(C(=O)O)c(=O)c2cc(F)c(N3CC=C(c4ccccc4)CC3)c(C(F)(F)F)c21		MOLT-4/M0(HIV-1(IIIB)) + MOLT-4	IIIB	0.05 µM
Nc1nc(N)c2ncn([C@H]3CO[C@@H](CO)O3)c2n1		PBMC	LAI	4 µM
Nc1ncnc2c1ncn2CCOCP(=O)(O)OCOC(=O)OCc1ccccc1		MT-4		>30 µM
CC(C)(C)NC(=O)[C@@H]1CCCN1C(=O)[C@@H](O)[C@H](Cc1ccccc1)NC(=O)[C@H](CC(N)=O)NC(=O)c1cnc2ccccc2n1		CEM	IIIB	<0.5 µM
C=CCOC(=O)OCOP(=O)(O)COCCn1cnc2c(N)ncnc21		MT-4	IIIB	23.7 µM
Cc1ccnc2c1NC(=O)c1cccnc1N2C1CC1	RT-K103N Y181C	PBMC	A17V(RT-K103N Y181C)	>10 µM
CC(C)(C)NC(=O)[C@@H]1C[C@H](Cl)CN1C(=O)[C@@H](O)[C@H](Cc1ccccc1)NC(=O)[C@H](CC(N)=O)NC(=O)c1cnc2ccccc2n1		MOLT-4/HIV-1(IIIB) + MOLT-4	IIIB	<1.2 µM
CCCCCCCCCCCCCCCCCCCCCCCCOC[C@H](CO[C@]1(C(=O)O)C[C@H](OS(=O)(=O)O)[C@@H](NC(C)=O)[C@H]([C@H](OS(=O)(=O)O)[C@@H](COS(=O)(=O)O)OS(=O)(=O)O)O1)OCCCCCCCCCCCCCCCCCCCCCCCC		H9	IIIB	1 µM
COc1ccc2c(c1)N(C(=O)OC(C)C)[C@@H](CSC)C(=S)N2	RT-G190E	CEM	IIIB	>10 µg/mL
C=CCOC(=O)OCOP(=O)(COCCn1cnc2c(N)ncnc21)OCOC(=O)OCC=C.O=C(O)/C=C/C(=O)O		MT-4	IIIB	>30 µM
C[C@@H](NC(=S)Nc1ccc(Cl)cn1)c1cccc2ccccc12	RT-L74V V106A T215Y	PBMC	RT multidrug-resistant (L74V V106A T215Y)	0.001 µM
CC(C)=CCN1Cc2cc(Cl)cc3[nH]c(=S)n(c23)C[C@@H]1C	RT-K103N	CEM	IIIB	≥5 µg/mL
Nc1nc(=O)n([C@@H]2CS[C@H](CO)O2)cc1F	RT-M184V	PBMC	3TC-resistant (RT M184V) Clinical isolate	0.5 µM
CC(=O)N(O)CCCCCNC(=O)CCC(=O)N(O)CCCCCNC(=O)CCC(=O)N(O)CCCCCN		PBL	BaL	<10 µM
CCCCCCCCCCCCCCOC[C@H](CS[C@]1(C(=O)O)C[C@H](OS(=O)(=O)O)[C@@H](NC(C)=O)[C@H]([C@H](OS(=O)(=O)O)[C@@H](COS(=O)(=O)O)OS(=O)(=O)O)O1)OCCCCCCCCCCCCCC		H9	IIIB	11 µM
Nc1ncnc2c1ncn2CCOCP(=O)(OCOC(=O)OCc1ccccc1)OCOC(=O)OCc1ccccc1		MT-4		>30 µM
Nc1nc(Br)nc2c1ncn2[C@H]1CC[C@@H](CO)O1		CEM	LAV	1 µM
C[C@@H](Cn1cnc2c(N)ncnc21)OCP(=O)(OCOC(=O)OCc1ccccc1)OCOC(=O)OCc1ccccc1.O=C(O)/C=C/C(=O)O		MT-4	IIIB	>30 µM
CCCCCCCCCCCCCCCCCCCCCCOC[C@H](CO[C@]1(C(=O)O)C[C@H](OS(=O)(=O)O)[C@@H](NC(C)=O)[C@H]([C@H](OS(=O)(=O)O)[C@@H](COS(=O)(=O)O)OS(=O)(=O)O)O1)OCCCCCCCCCCCCCCCCCCCCCC		PBMC	10001 Clinical isolate	20 µM
CC(C)(C)NC(=O)[C@@H]1C[C@H](Cl)CN1C(=O)[C@@H](O)[C@H](Cc1ccccc1)NC(=O)[C@H](CC(N)=O)NC(=O)OCc1ccccc1		CEM	IIIB	<0.5 µM
Cc1ccnc2c1NC(=O)c1cccnc1N2C1CC1	RT-V106A	CEM	IIIB	2.3 µg/mL
CC(C)[C@H](NC(=O)OCc1ccccc1)C(=O)N[C@@H](Cc1ccccc1)[C@@H](O)[C@@H](NCc1ccc(Cl)cc1)C(=O)N[C@H](C(=O)NCc1nc2ccccc2[nH]1)C(C)C		MT-4	RF	0.11 µM
CC(C)Nc1cccnc1N1CCN(C(=O)c2cc3cc(NS(C)(=O)=O)ccc3[nH]2)CC1	RT-L100I V106A G190A	H9	B9 (RT L100I V106A G190A)	>10 µg/mL
Cc1occc1C(=S)Nc1ccc(Cl)c(/C=N/OC(C)(C)C)c1		CEM	IIIB	0.05 µg/mL
CC(C)[C@H](NC(=O)c1ccc2ccccc2n1)C(=O)N[C@@H](Cc1ccccc1)[C@H](O)CN1CC[C@@H](OCc2ccncc2)C[C@H]1C(=O)NC(C)(C)C		PBMC	Wg3523	0.024 µM
Cc1ccc(NC(=S)N[C@H](C)c2cccc3ccccc23)nc1	RT-Y181C	PBMC	A17	0.066 µM
CO[C@@H]1C=C[C@@]23c4cc5c(cc4CN(C[C@@H]2O)[C@H]3C1)OCO5		MT-4	IIIB	0.8 µg/mL
CCCCCCCCCCCCCC(=O)OC[C@@H](COP(=O)(O)OC[C@@H]1CC[C@H](n2cc(C)c(=O)[nH]c2=O)O1)OC(=O)CCCCCCCCCCCCC		CEM	BRU	14 µM
Cn1cc(C(=O)N[C@@H](CC(N)=O)C(=O)N[C@@H](Cc2ccccc2)[C@H](O)C(=O)N2C[C@@H](Cl)C[C@H]2C(=O)NC(C)(C)C)c2ccccc21		CEM	IIIB	<0.2 µM
CCCCCCCCCCCCCCCCCCCCCCCCCCOC[C@H](CO[C@]1(C(=O)O)C[C@H](OS(=O)(=O)O)[C@@H](NC(C)=O)[C@H]([C@H](OS(=O)(=O)O)[C@@H](COS(=O)(=O)O)OS(=O)(=O)O)O1)OCCCCCCCCCCCCCCCCCCCCCCCCCC		H9	IIIB	>100 µM
Cc1cccc(C)c1CNC(=O)[C@H]1N(C(=O)[C@@H](O)C[C@@H](Cc2ccccc2)C(=O)N[C@H]2c3ccccc3C[C@H]2O)CSC1(C)C	PR-K60C	MT-4		<0.125 µM
C[C@H](Cn1cnc2c(N)ncnc21)OCP(=O)(OCOC(=O)OCc1ccccc1)OCOC(=O)OCc1ccccc1		MT-4		>30 µM
Cc1cn([C@H]2C[C@H](N=[N+]=[N-])[C@@H](CO)O2)c(=O)[nH]c1=O	RT-M184V	MT-4	HXB2D (RT-M184V)	0.015 µM
Cc1csc(NC(=S)N[C@H](C)c2cccc3ccccc23)n1	RT-Y181C	PBMC	A17	0.145 µM

A second listing of 4 rows from above:

smiles	changes	cells	strain	value
Nc1ncnc2c1ncn2CCOCP(=O)(OCOC(=O)OC1CCCCC1)OCOC(=O)OC1CCCCC1.O=C(O)/C=C/C(=O)O		MT-4	IIIB	23.1 µM
COc1ccc(CN[C@@H](C(=O)N[C@H](C(=O)NCc2nc3ccccc3[nH]2)C(C)C)[C@H](O)[C@H](Cc2ccccc2)NC(=O)[C@@H](NC(=O)OCc2ccccc2)C(C)(C)C)cc1		MT-4	RF	0.023 µM
Nc1nc(Br)nc2c1ncn2[C@H]1CC[C@@H](CO)O1		CEM	LAV	1 µM
CCCCCCCCCCCCCCOC[C@H](CS[C@]1(C(=O)O)C[C@H](OS(=O)(=O)O)[C@@H](NC(C)=O)[C@H]([C@H](OS(=O)(=O)O)[C@@H](COS(=O)(=O)O)OS(=O)(=O)O)O1)OCCCCCCCCCCCCCC		H9	IIIB	11 µM